In the supplement of paper PMC9931576:
Human monoclonal antibodies against the spike receptor-binding domain (heavy:light variable regions). IC50 against pseudoviruses bearing the spike of naturally observed variants; lower = stronger; >10 µg/ml means not reached at the top dose. No active / inactive call. The stated detection limit is 0.0005 µg/ml; values near or below 0.001 µg/ml lie at the floor of the assay.

B1: BD57-0365 (protein)
chain 1: QMHLVESGGGVVQPGRSLRLSCEASGFTFSTYAMHWVRQAPGKGLEWVAFISSDGTNEYYADSVKGRFSISRDTSKNTLFLQMNSLRPDDTAVYFCAKPGSSGYQHVPDYFDSWGQGTLVTVSS
chain 2: SYVLTQPPSVSVAPGKTARITCGGNSIGSKSVHWYQQKPGQAPVVVIFYDNDRPSGIPERFSGSNSGNTATLTISRVEAGDEADYYCQVWDTGVLFGGGTKLTVL
B2: BD57-0361 (protein)
chain 1: EVQLVESGGGLVPPGRSLRLSCAASGFTFDDYAMHWVRQAPGKGLEWISGINWNSGDIAYSDSVKGRFTISRDNAKNSLYLQMDSLRARDSALYFCTKARLGELPTGPFDYWGQGTLVTVSS
chain 2: QSVLTQPPSASGTPGQRVTISCSGSSSNIGRYTVNWYQHLPGTAPKLLIYLNNHRPSGVPDRFSGSKSGTSGSLAISGLQSEDEADYYCVAWDDSLNGWVFGGGTKLTVL
B3: BD57-0336 (protein)
chain 1: QVHLVESGGGVVQPGRSLRLSCAASGFTFRSYGMYWVRQAPGKGLEWVATISYDGDNKNYGDSVKGRFTISRDNSKNTLYLQMNSLRAEDTAVYYCAKRLGQYCSADSCNSAGGYFDYWGLGTLVTVSS
chain 2: NFMLTQPHSVSESPGKTVTISCTRSSGSIASNYVQWYQQRPGSAPTSVIHEDNQRASGVPDRFSGSIDSSSNSASLTISGLKTEDEADYYCQSYDNANVVFGGGTKLTVL
B4: BD57-0363 (protein)
chain 1: EVQLVESGGGLVKPGGSLRLSCAASGFTFNNAWMTWVRQAPGKGLEWVGRIKSKTDGGTRDYAAPVKGRFTISRDESKNMLYLQMNSLKTEDTAVYYCATVSSLHFWLIGEDNALDIWGQGTMVTVSS
chain 2: EIVLTQSPGTLSLSPGERATLSCRASQSVSSSYLAWYQQKPGQAPRLLIYGSLSRAAGIPDRFSGSGSGTDFTLTISRLEPEDFAVYYCQHYGSSSQTFGQGTKVEIK
B5: BD57-0326 (protein)
chain 1: QVQLVQSGAEVKKPGASVRVSCKASGYTFIDYYIHWVRQTPGQGLEWMGWIDPKSGGTNYAKNFRARVAMTRDTSINTVYMDLSRLRSDDTAVFYCARDTTATWSDGEVLDYWGQGTVVTVSS
chain 2: DIQMTQSPSSLSASVGDRITITCRASQSINRNLNWYQQKPGKAPNLLIYGASSLQAGVPSRFSGSGSGTDFTLTISSLQLEDLATYYCQQSYSTPPLTFGGGTKVEIK
B6: BD57-0335 (protein)
chain 1: EVQLVESGGGLVKPGGSLRLSCGASGFTFSSYSMNWVRQAPGKGLEWVSSISRSPSYISYADSVKGRFTISRDNTKNSLSLQMDSLRDDDTAVYYCARDGAGGQMGLLYFYYMDVWGKGTTVSVSS
chain 2: QSALTQPASVSGSPGQSITISCTGTSSDIGDYNYVSWYQQHPGKAPKLMIYDVSNRPSGVSNRFSGSKSGNTASLTISGLQAEDEANYYCSSYTRSSPLVLFGGGTKLTVL
B7: BD57-0323 (protein)
chain 1: QVQLVESGGGVVQPGKSLRLSCASSGFTFRSYTMHWVRQVPGKGLEWVAVISNDGRIKDYADIVKGRFTISRDNSKNTLYLEMNSLRTEDTAIYYCARDSENTMIVDCFQHWGQGALVTVSS
chain 2: DIQMTQSPSSLSASVGDRVTISCRASQSITNYLNWYQQKPGKAPKLLIYAASSLQSGVPSRFSGSGSGTDFTLTITNLQPEDFATYYCQQSYTTFMYTFGQGTTLDIK
B8: BD57-0322 (protein)
chain 1: EVQLVESGGGLVQPGGSLRLSCAASGFSFSGYDMHWVRQATGKGLEWVSGIGTAGDTYYSGSVKGRFTISRENAKNSLNLQMNNLRAGDTAVYYCARGGSSNWYWYFDLWGRGTLVTVSS
chain 2: DIQMTQSPSSLSASVGDRVSITCRASQSINTYLNWYQQKPGRAPKLLIYAASSLQSGVPSRFSGSGSGTDYTLTISSLQPEDFATYYCQQGYSMPEVTFGQGTRLEIK
B9: BD57-0330 (protein)
chain 1: QVQLVQSGAEVTTPGASVKVSCKASGYTFTDYHIYWVRQAPGQGLEWMGWINPNSGGTNYAQKFQGRVTMTRDTSISTAYMELSSLRSDDTAVYYCARGELELRTYYYYMDVWGKGTTVTVSS
chain 2: SYVLTQPPSVSVAPGKTARITCGGNNIGSKSVNWYQQKPGQAPVLVIHSDSDRPSGIPERLSGSNSGNTATLTISRVGAGDEADYYCQVWDISSDHVIFGGGTKLTVL
B10: BD57-0373 (protein)
chain 1: QVQLVQSGAEVKKPGSSVKVSCKASGGPFNNYAITWVRQAPGQGLEWMGGIIPIFGTTNYAQKFQGRLTITADEFTSTAFMELSSLRSEDTAVYYCATPFRGAAGQYYYYYMDVWGKGTTVIVSS
chain 2: DIQMTQSPSSLSASVGDRVTITCQASQDISNFLNWYQQKPGKAPKLLIYDAYNLETGVPSRFSGSGSGTHFTFTISSLQPEDFATYYCQQYDNVRLTFGGGTKVDIK
B11: BD57-0320 (protein)
chain 1: EVQLVESGGGLVQPGRSLRLSCAASGFTFDDYAMHWVRQAPGKGLEWVSGIPWHSGGMVYADSVQGRFTISRDNAKNSLYLQMNSLGPEDTALYYCAKGGTRNREKWVYFDYWGQGTLVTVSS
chain 2: EIVMTQSPATLSVSPGERATLSCRASQSVSSNLAWYQQKPGQAPRLLIYGASTRATGIPARFSGSGSGTEFTLTISSLQSEDFAVYYCQQYNNWPPGITFGQGTRLEIK
B12: BD57-0340 (protein)
chain 1: QVQLVESGGGVVQPGRALRLSCAASGFTFSAYGMHWVRQAPGKGLEWVAVIWYDGNYKYYADSVKGRFTISRDNSKNTLYLQMNSLRAEDTAVYYCARDGNIGWSFPYFDCWGQGTLVTVSS
chain 2: SYELTQPPSVSVSPGQTARITCSADTLPNQYAYWYQQKPGQAPVLVIYKDSERPSGIPERFSGSSSGTTITLTISGVQAEDEADYYCQSADSSGTVLVFGGGTKLTVL

target: SARS-CoV-2 Omicron BA.1 spike pseudovirus; experiment: pseudovirus neutralization IC50; higher = weaker neutralization
Method: (§1)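 Single-round VSV luciferase pseudovirus mixed with antibody dilutions for 1 h and put on Huh-7 cells for about a day; IC50 from the dose curve.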

Row | Binder | pseudovirus neutralization IC50 [µg/mL]
1 | B1 | 3.24
2 | B2 | 2.15
3 | B3 | > 10
4 | B4 | 3.3
5 | B5 | 0.243
6 | B6 | 0.0401
7 | B7 | > 10
8 | B8 | > 10
9 | B9 | 2.4
10 | B10 | 0.846
11 | B11 | 2.38
12 | B12 | 0.502

target: SARS-CoV-2 Omicron BA.2 spike pseudovirus; experiment: as above
Method: as §1

Row | Binder | pseudovirus neutralization IC50 [µg/mL]
13 | B1 | 6.26
14 | B2 | 3.16
15 | B3 | > 10
16 | B4 | 4.28
17 | B5 | 0.493
18 | B6 | 0.0279
19 | B7 | > 10
20 | B8 | > 10
21 | B9 | 2.25
22 | B10 | 0.89
23 | B11 | 1.88
24 | B12 | 0.717

target: SARS-CoV-2 Omicron BA.2.75 spike pseudovirus; experiment: as above
Method: as §1

Row | Binder | pseudovirus neutralization IC50 [µg/mL]
25 | B1 | 7.12
26 | B2 | 1.47
27 | B3 | > 10
28 | B4 | 6.76
29 | B5 | 0.107
30 | B6 | 0.0317
31 | B7 | > 10
32 | B8 | > 10
33 | B9 | 1.93
34 | B10 | 0.597
35 | B11 | 2.86
36 | B12 | 0.968

target: SARS-CoV-2 Omicron BA.5 spike pseudovirus; experiment: as above
Method: as §1

Row | Binder | pseudovirus neutralization IC50 [µg/mL]
37 | B1 | 3.88
38 | B2 | 2.8
39 | B3 | > 10
40 | B4 | 6.6
41 | B5 | 0.0331
42 | B6 | 0.0308
43 | B7 | > 10
44 | B8 | > 10
45 | B9 | > 10
46 | B10 | 1.68
47 | B11 | 4.31
48 | B12 | 1.66

target: SARS-CoV-2 Omicron BQ.1.1 spike pseudovirus; experiment: as above
Method: as §1

Row | Binder | pseudovirus neutralization IC50 [µg/mL]
49 | B1 | > 10
50 | B2 | 2.26
51 | B3 | > 10
52 | B4 | 5.72
53 | B5 | > 10
54 | B6 | > 10
55 | B7 | > 10
56 | B8 | > 10
57 | B9 | > 10
58 | B10 | 2.05
59 | B11 | 3.56
60 | B12 | > 10

target: SARS-CoV-2 Omicron XBB spike pseudovirus; experiment: as above
Method: as §1

Row | Binder | pseudovirus neutralization IC50 [µg/mL]
61 | B1 | 3.49
62 | B2 | 1.82
63 | B3 | > 10
64 | B4 | 5.93
65 | B5 | > 10
66 | B6 | > 10
67 | B7 | > 10
68 | B8 | > 10
69 | B9 | 2.51
70 | B10 | 1.91
71 | B11 | 3.94
72 | B12 | > 10

target: SARS-CoV-2 early D614G spike pseudovirus; experiment: as above
Method: as §1

Row | Binder | pseudovirus neutralization IC50 [µg/mL]
73 | B1 | > 10
74 | B2 | 0.0667
75 | B3 | 1.31
76 | B4 | > 10
77 | B5 | 0.0249
78 | B6 | 0.00588
79 | B7 | > 10
80 | B8 | > 10
81 | B9 | > 10
82 | B10 | 4.02
83 | B11 | 1.77
84 | B12 | 0.673
